Source: ChEMBL document CHEMBL1154216, “Development of a novel expression, ZI MAX/K ZI, for determination of the counter-anion effect on the antimicrobial activity of tetrabutylammonium salts” (2009)

How the values were obtained:
[1] = test system: Staphylococcus epidermidis; assay: Antimicrobial activity against Staphylococcus epidermidis ATCC 12228 assessed as ratio of maximum zone of inhibition to concentration required to reach half maximum zone of inhibition after 24 hrs; assay type: functional
Escherichia coli = assay: Antimicrobial activity against Escherichia coli K-12 C600 assessed as ratio of maximum zone of inhibition to concentration required to reach half maximum zone of inhibition after 24 hrs; assay type: functional

CCCC[N+](CCCC)(CCCC)CCCC.[C-]#N
ZImax/KZI (mm microL/micromol) [1]: 16.1 | ZImax/KZI (mm microL/micromol) (Escherichia coli): 2.48
